Anti-infective test results gathered from many reports (values: NIAID ChemDB through PubChem).

Common to all: whole-cell or culture tests; agent: HIV-1; read by: cytopathic effect / XTT; read-out: fold resistance

Fold resistance has wild type as its base. Neighbouring rows are from separate reports.

O=[N+]([O-])c1ccccc1S(=O)(=O)c1ccccc1 ; cell line: CEM + CEM-SS ; mutations: RT-L100I ; strain: IIIB(OC-R(I)) ; value: 6
Cc1cn([C@H]2C[C@H](N=[N+]=[N-])[C@@H](CO)O2)c(=O)[nH]c1=O ; cell line: CEM + CEM-SS ; mutations: RT-V179D ; strain: NL4-3 ; value: 1.67
O=C1N(Cc2ccc(CO)cc2)[C@H](COc2ccccc2)[C@H](O)[C@@H](O)[C@@H](COc2ccccc2)N1Cc1ccc(CO)cc1 ; cell line: MT-4 ; mutations: PR-I84V ; strain: IIIB ; value: 13.6
Cc1occc1C(=S)Nc1ccc(Cl)c(/C=N/OC(C)(C)C)c1 ; cell line: CEM + CEM-SS ; mutations: RT-Y181C ; strain: UC040-R (RT-Y181C) ; value: 4
Fc1cccc(F)c1[C@H]1SCc2nc3ccccc3n21 ; cell line: CEM ; mutations: RT-V106N ; strain: IIIB ; value: 7.82
CCc1c(C(=O)c2cc(C)cc(C)c2)n(CC2CC=CC2)c(=O)[nH]c1=O ; cell line: CEM + CEM-SS ; mutations: RT-A98G ; strain: NL4-3 ; value: 0.3
Cc1cn([C@H]2C[C@H](N=[N+]=[N-])[C@@H](CO)O2)c(=O)[nH]c1=O ; cell line: CEM + CEM-SS ; mutations: RT-P236L ; strain: IIIB HEPT-resistant (IV) ; value: 0.7
Cc1cn([C@H]2C[C@H](N=[N+]=[N-])[C@@H](CO)O2)c(=O)[nH]c1=O ; cell line: CEM + CEM-SS ; mutations: RT-L74V ; strain: NL4-3 ; value: 5
CCc1c(Sc2ccccn2)n(COCc2ccccc2)c(=O)[nH]c1=O ; cell line: CEM + CEM-SS ; mutations: RT-Y181C ; strain: IIIB(DPS-R(III)) ; value: 84
Cc1ccnc2c1NC(=O)c1cccnc1N2C1CC1 ; cell line: CEM + CEM-SS ; mutations: RT-T139I ; strain: CALO(RT-T139I) ; value: 1
Nc1nc(NC2CC2)c2ncn([C@H]3C=C[C@@H](CO)C3)c2n1 ; cell line: MT-2 ; mutations: RT-K65R M184V ; strain: Site-directed mutant ; value: >8
Cc1ccnc2c1NC(=O)c1cccnc1N2C1CC1 ; cell line: CEM + CEM-SS ; mutations: Pyridinone-resistant (RT Y181C K103N) ; strain: A17 ; value: >3800
Nc1nc(=O)n([C@@H]2CS[C@H](CO)O2)cc1F ; cell line: MT-2 ; mutations: RT-K65R H221Y ; strain: Site-directed mutant ; value: 13.6
CCc1c(Sc2ccccn2)n(COCc2ccccc2)c(=O)[nH]c1=O ; cell line: CEM + CEM-SS ; mutations: RT-Y181C ; strain: IIIB ; value: 53
Cc1cn([C@@H]2O[C@H](CO[Si](C)(C)C(C)(C)C)C3(OS(=O)(=O)C=C3N)[C@H]2O[Si](C)(C)C(C)(C)C)c(=O)n(C)c1=O ; cell line: CEM ; mutations: RT-K103N ; strain: IIIB ; value: 7.33
CC(C)=CCN1Cc2cccc3[nH]c(=S)n(c23)C[C@@H]1C ; cell line: CEM + CEM-SS ; mutations: RT-L100I ; strain: IIIB(OC-R(I)) ; value: >1000
C/C=C/CSc1cc(NC(=S)c2ccsc2C)ccc1Cl ; cell line: CEM + CEM-SS ; mutations: RT-Y181C ; strain: UC040-R (RT-Y181C) ; value: >33.3
Fc1cccc(F)c1C1SCc2nc3ccccc3n21 ; cell line: CEM ; mutations: RT-L100I ; strain: IIIB ; value: 2.24

The last 2 rows once more:

SMILES,cell line,mutations,strain,value
C/C=C/CSc1cc(NC(=S)c2ccsc2C)ccc1Cl,CEM + CEM-SS,RT-Y181C,UC040-R (RT-Y181C),>33.3
Fc1cccc(F)c1C1SCc2nc3ccccc3n21,CEM,RT-L100I,IIIB,2.24